As usually defined, the pKi is the negative decadic logarithm of the Ki, by convention in mol/L. A lower pKi goes with a large Ki.

The structures appear in SMILES notation. pKi: −log10 of the molar value.

The nature of the assay: Inhibition of Burkholderia pseudomallei beta-CA incubated for 15 mins by stopped-flow CO2 hydration assay.

Consider `NS(=O)(=O)O`, for which the pKi was 4.08.
Under `O=[As](O)(O)c1ccccc1` stands 4.04; under `NS(N)(=O)=O`, 4.05.

Source of the values: ChEMBL document CHEMBL4043124 (Bioorg Med Chem, 2017).
